Results as given in PMC10100805.
Construct, isoform or probe ends are uncertain for at least one entry.

By UniProt entry, the sequences of proteins in these tests, tags left out. Where a name states a change or a piece, a line headed by the entry shows the natural chain unless it says otherwise.
UniProt Q5HCN2: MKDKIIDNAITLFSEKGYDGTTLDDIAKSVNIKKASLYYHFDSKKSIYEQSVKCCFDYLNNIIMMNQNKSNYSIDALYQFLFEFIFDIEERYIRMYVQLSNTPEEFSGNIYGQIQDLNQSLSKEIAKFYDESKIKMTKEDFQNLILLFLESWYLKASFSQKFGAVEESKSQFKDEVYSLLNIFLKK

Biological target: IcaR (FK300) (Staphylococcus aureus FK300) (UniProt Q5HCN2)
Assay: EMSA
Conditions: 0.1-2 ug protein, 1 ng probe; recombinant protein; residues 1-186; protein details: N-terminal His6 (MHHHHHH, from primer); label: 5'-biotin on the reverse primer strand; probe letters rebuilt from the primers and the genome

“ATTGCGTTATCAATAATCTTATCCTTCAATTTTTATAACCCCCTACTGAAAATTAATCACACTATGTTACAGGAAAATTAAGTTGCAATTACAAATATTTCCGTTTAATTATAACAACAATCTATTGCAAATTAAAATACTATCAATTACCATATGGCTTACAACCTAACTAACGAAAGGTAGGTAAAGGAATTGCAA (double strand) [icaR-icaA intergenic region (ica promoter)]”: binds.
